Pooled drug test results. Numbers come from NIAID ChemDB, via PubChem.

Shared fields: whole-cell or culture tests; organism: HIV-1; cells: CEM; measure: EC50

Lines come from different laboratories, so protocols vary. ECn is the concentration giving n% inhibition of infection, replication or growth. Blank or dashed fields: not listed here.

smiles | strain | changes | read by | value
CCC1=C(C2=NC[C@H](C3CCCCC3)O2)[C@H](c2cccc(O)c2)NC(=O)N1 | - | - | p24 / ELISA | ≤1 µM
CC(COc1cc(NC(=S)OC(C)C)ccc1Cl)=NO | IIIB | - | syncytia | 0.097 µM
CCC1=C(C(=O)OCC2CCCCC2)C(Cc2ccccc2)NC(=O)N1 | - | - | p24 / ELISA | >5 µM
CCCOC(=O)c1cc(NC(=S)OC(C)C)ccc1Cl | - | RT-V106A | syncytia | 2.533 µM
COc1ccc(NC(=S)c2ccsc2C)cc1OCC=C(Cl)Cl | Pyridone-resistant (RT Y181C) | RT-Y181C | syncytia | 0.13 µg/mL
CCOCn1c(Sc2cc(C)cc(C)c2)c(CC)c(=O)[nH]c1=O | IIIB | RT-Y188H | syncytia | 8.9 µM
Cc1ccsc1C(=O)Nc1ccc(Cl)c(C(=O)OC2CCCCC2)c1 | - | RT-V106A | syncytia | 18 µM
CC(C)OC(=S)Nc1ccc(Cl)c(C(=O)O)c1 | - | RT-L100I | syncytia | >36.53 µM
O=C1NC(C2CC2)=C(C(=O)OCC2CCCCC2)C(c2ccc([N+](=O)[O-])cc2)N1 | - | - | p24 / ELISA | >5 µM
Cc1ccc(C)c(CS(=O)(=O)c2cccc[n+]2[O-])c1 | RF | - | syncytia | 7.2 µg/mL
CCOC(=O)N[C@@H](Cc1ccccc1)[C@H](O)CN(CC1CCCC1)S(=O)(=O)c1ccc(F)cc1 | IIIB | - | p24 | <1 µM
Cc1cc(C)cc(Sc2c(C(C)C)c(=O)[nH]c(=S)n2COCCO)c1 | IIIB | RT-Y181I | syncytia | 10 µM
CC1=C(C(=S)Nc2ccc(Cl)c(/C=N/OC(C)(C)C)c2)CCO1 | IIIB | - | syncytia | 0.017 µM
C=C(Cl)COc1cc(NC(=S)c2ccoc2C)ccc1Cl | HEPT-resistant (RT Y188H) | RT-Y188H | syncytia | 2 µg/mL
CC(C)OC(=O)c1cc(NC(=S)c2ccco2)ccc1Cl | - | RT-L100I | syncytia | 17 µM
CC(C)CN(C[C@@H](O)[C@H](Cc1ccccc1)NC(=O)OC[C@@H]1COC(=O)N1)S(=O)(=O)c1ccc(F)cc1 | IIIB | - | p24 | <0.101 µM
C/C=C/COc1cc(NC(=S)OC(C)C)ccc1Cl | - | RT-V106A | syncytia | 1.668 µM
CC(C)CN(C[C@H](O)C[C@H](Cc1ccccc1)CN1CSCC1C(=O)NC(C)(C)C)S(=O)(=O)c1ccccc1 | IIIB | - | p24 | <1 µM
CCc1c(Cc2cc(C)cc(C)c2)n(COCCO)c(=O)[nH]c1=O | IIIB (TIBO 82150) (RT-L100I) | RT-L100I | syncytia | 0.17 µM
Cc1sccc1C(=S)Nc1ccc(Cl)c(OCC=C(Cl)Cl)c1 | HEPT-resistant (RT Y188H) | RT-Y188H | syncytia | 2 µg/mL
CC[C@H](C)OC(=S)Nc1ccc(Cl)c(C(=O)OC(C)C)c1 | - | RT-L100I | syncytia | 2.122 µM
Cc1cc(C)c(CS(=O)c2cccc[n+]2[O-])c(C)c1 | IIIB | RT-Y181C | syncytia | 10 µg/mL
CC1=C(C(=O)OCC2CCCCC2)C(c2ccc[n+]([O-])c2)NC(=O)N1 | - | - | p24 / ELISA | >5 µM
Cc1occc1C(=S)Nc1ccc(Cl)c(OCCC(C)C)c1 | - | RT-V106A | syncytia | 0.291 µM
CCOCn1c(Cc2ccccc2)c(C(C)C)c(=O)[nH]c1=O | IIIB (TIBO 82150) (RT-L100I) | RT-L100I | syncytia | 0.02 µM
O=C(Nc1ccc(Cl)c(C(=O)OC2CCCCC2)c1)c1ccccc1F | - | RT-V106A | syncytia | 5.3 µM
COCC1=C(C(=O)Nc2ccc(Cl)c(C(=O)OC(C)C)c2)SCCO1 | IIIB | - | syncytia | 0.7 µg/mL
CCCCOC(=O)c1cc(NC(=S)OC(C)C)ccc1Cl | - | RT-L100I | syncytia | 1.9 µM
CC(C)=CCOc1cc(NC(=S)c2ccoc2C)ccc1Cl | IIIB | RT-L100I | syncytia | 0.024 µM
COc1ccc(NC(=S)c2ccoc2C)cc1OCC=C(Cl)Cl | TSAO-m3T-resistant (RT E138K) | RT-E138K | syncytia | 0.05 µg/mL
CC(C)c1ncc(CS(=O)(=O)N(CC2CCCC2)C[C@@H](O)CN(CCc2ccccc2)C(=O)c2ccccc2)s1 | IIIB | - | p24 | <1 µM
Cc1sccc1C(=O)Nc1ccc(Cl)c(OCC=C(Cl)Cl)c1 | HEPT-resistant (RT Y188H) | RT-Y188H | syncytia | 2 µg/mL
C=CCOC(=O)N[C@@H](Cc1ccccc1)[C@H](O)CN(CC(C)C)S(=O)(=O)c1ccc(NC(C)=O)cc1 | IIIB | - | p24 | <1.001 µM
CO/N=C/c1cc(NC(=S)c2ccoc2C)ccc1OC | - | RT-V106A | syncytia | 0.46 µM
CCC1=C(C(=O)OCC2CCCCC2)C(c2ccc([N+](=O)[O-])c(O)c2)NC(=O)N1 | - | - | p24 / ELISA | ≤1 µM
CC(C)OC(=O)c1cc(NC(=S)OC(C)C)ccc1Cl | - | RT-Y181C | syncytia | 1.9 µM
C/C=C/CSc1cc(NC(=S)c2ccsc2C)ccc1Cl | - | RT-K103N | syncytia | 0.22 µM
C#CCOc1cc(NC(=S)OC(C)C)ccc1Cl | - | RT-L100I | syncytia | 14.1 µM
CC(C)CN(C[C@@H](O)[C@H](Cc1ccccc1)NC(=O)O[C@@H]1CCOC1)S(=O)(=O)c1cc(Cl)c(Cl)s1 | IIIB | - | p24 | <1.001 µM
CC(C)OC(=O)c1cc(NC(=S)c2ccccc2N)ccc1Cl | - | RT-Y181C | syncytia | 15 µM
CC(=O)Nc1cc(S(=O)(=O)N(CC(C)C)C[C@@H](O)[C@H](Cc2ccccc2)NC(=O)OC2CCOC2)ccc1F | IIIB | - | p24 | <0.101 µM
C=CCOc1cc(NC(=S)OC(C)C)ccc1C#N | - | RT-V106A | syncytia | 1.447 µM
CCC1=C(C(=O)Nc2ccc(Cl)c(C(=O)OCC(C)C)c2)SCCO1 | TSAO-resistant (RT E138K) | RT-E138K | syncytia | 0.5 µg/mL
CC(C)c1c(Sc2ccccc2)n(COCCO)c(=S)[nH]c1=O | IIIB | - | syncytia | 0.2 µM
CCSCC1=C(C(=O)Nc2ccc(Cl)c(C(=O)OC(C)C)c2)SCCO1 | TSAO-resistant (RT E138K) | RT-E138K | syncytia | 4.5 µg/mL
Cc1ccc(C)c(CS(=O)c2ccc(Cl)c[n+]2[O-])c1 | HE | - | syncytia | 4 µg/mL
CC[C@@H](C)OC(=S)Nc1ccc(Cl)c(C(=O)OC(C)C)c1 | IIIB | - | syncytia | 0.061 µM
CCc1c(Sc2cc(C)cc(C)c2)n(COCc2ccccc2)c(=O)[nH]c1=O | IIIB | RT-Y181I | syncytia | 0.11 µM
CC(C)OC(=O)Nc1ccc(Cl)c(C(=O)OC(C)C)c1 | - | RT-E138K | syncytia | >33.36 µM
CCCOC(=O)c1cc(NC(=O)C2=C(C)OCCS2)ccc1Cl | Nevirapine-resistant (RT V106A) | RT-V106A | syncytia | 6 µg/mL
CC(C)OC(=O)c1cc(NC(=S)OC(C)C)ccc1Cl | IIIB | RT-V106A | syncytia | 2.06 µM
COc1ccc(NC(=S)C2=C(C)OCCS2)cc1OCC=C(Cl)Cl | TIBO R82913-resistant (RT K103N) | RT-K103N | syncytia | 2.5 µg/mL
CN1CCN(C(=O)c2ccc3c(=O)c4ccccc4[nH]c3c2)CC1 | - | RT-E138K | syncytia | 1.347 µM
CCCC1=C(C(=O)Nc2ccc(Cl)c(C(=O)OCC)c2)SCCO1 | TIBO-resistant (RT L100I) | RT-L100I | syncytia | 0.55 µg/mL
CC(C)OC(=S)Nc1ccc(Cl)c(C(=O)OC2(C)COC2)c1 | IIIB | - | syncytia | 0.145 µM
CC1=C(C(=O)Nc2cc(C(=O)OC(C)C)c(Cl)cc2F)SCCO1 | Nevirapine-resistant (RT V106A) | RT-V106A | syncytia | >10 µg/mL
COc1ccc(S(=O)(=O)N(CC(C)C)C[C@@H](O)CCN2CCCC[C@H]2C(=O)NC(C)(C)C)cc1 | IIIB | - | p24 | <1 µM
C/C=C\COc1cc(NC(=S)OC(C)C)ccc1Cl | IIIB | - | syncytia | 0.0133 µM
COc1ccc(S(=O)(=O)N(CC(C)C)C[C@@H](O)CCN(CC2CCCC2)S(=O)(=O)Cc2ncc[nH]2)cc1 | IIIB | - | p24 | <1 µM
Cc1ccsc1C(=S)Nc1ccc(Cl)c(C(=O)OC2CCCCC2)c1 | - | RT-E138K | syncytia | 1 µM
CC(C)=CCOc1cc(NC(=S)c2ccoc2C)ccc1Cl | IIIB | RT-Y188L | syncytia | 1.5 µM
Cn1cccc1C(=S)Nc1ccc(Cl)c(/C=N/OC(C)(C)C)c1 | - | RT-E138K | syncytia | 0.364 µM
CC(C)CN(C[C@@H](O)[C@H](Cc1ccccc1)NC(=O)O[C@H]1CCOC1)S(=O)(=O)c1cccc2nonc12 | IIIB | - | p24 | <10 µM
CC(C)OC(=S)Nc1ccc(Cl)c(C(=O)OC2CCCC2)c1 | - | RT-Y181C | syncytia | 1.609 µM
CC(C)OC(=O)c1cc(NC(=S)c2cccs2)ccc1Cl | IIIB | - | syncytia | 0.028 µM
CCC1=C(C(=O)OCC2CCCCC2)[C@H](c2ccc(OC(=O)c3ccccc3)c(Cl)c2)NC(=O)N1 | - | - | p24 / ELISA | ≤1 µM
CCOCn1c(Sc2ccccc2)c(C(C)C)c(=O)[nH]c1=O | IIIB | RT-Y181I | syncytia | >10 µM
COc1ccc(NC(=O)c2ccoc2C)cc1OCC=C(Cl)Cl | Nevirapine-resistant isolate (RT V106A) | RT-V106A | syncytia | 2 µg/mL
C=CCOC(=O)N[C@@H](Cc1ccccc1)[C@H](O)CN(CC1CCCC1)S(=O)(=O)c1ccc(Cl)cc1 | IIIB | - | p24 | <1.001 µM
CC(C)OC(=O)c1cc(NC(=S)N(C)C(C)C)ccc1Cl | - | RT-V106A | syncytia | >30.32 µM
Cc1occc1C(=S)Nc1ccc(Cl)c(C(=O)OC(C)C)c1 | - | RT-V106A | syncytia | 1.7 µM
O=C(N[C@@H](Cc1ccccc1)C(=O)C(F)(F)CN(Cc1ccccc1)S(=O)(=O)c1ccccc1)OCc1ccccc1 | IIIB | - | p24 | <1 µM
CC(C)CN(C[C@@H](O)[C@H](Cc1ccccc1)NC(=O)O[C@H]1CCOC1)S(=O)(=O)c1ccc(F)c(F)c1 | IIIB | - | p24 | <40 µM
CC(C)OC(=S)Nc1ccc(Cl)c(C(=O)OCC[Si](C)(C)C)c1 | - | RT-V106A | syncytia | 14.71 µM
CC1=C(C(=O)Nc2cc(C(=O)OC(C)C)c(F)cc2F)SCCO1 | PYR-resistant (RT Y181C) | RT-Y181C | syncytia | >10 µg/mL
CSCCOC(=S)Nc1ccc(Cl)c(C(=O)OC(C)C)c1 | - | RT-V106A | syncytia | 15.81 µM
CC1=C(C(=O)Nc2ccc(Cl)c(C(=O)OC(C)C)c2)SCCO1 | IIIB | RT-Y188H | syncytia | 2.8 µM
Cc1ccsc1C(=S)Nc1ccc(Cl)c(C(=O)OC(C)C)c1 | - | RT-V106A | syncytia | 3 µM
NC(=O)C[C@H](NC(=O)c1ccc2ccccc2n1)C(=O)N[C@@H](Cc1ccccc1)[C@H](O)CN(Cc1ccccc1)S(=O)(=O)c1cccc2nonc12 | IIIB | - | p24 | <1 µM
COc1ccc(S(=O)(=O)N(CC(C)C)C[C@@H](O)CCN(CC2CCCC2)S(=O)(=O)c2nccs2)cc1 | IIIB | - | p24 | <1 µM
CC(C)CN(C[C@@H](O)[C@H](Cc1ccccc1)NC(=O)OCC1CCOC1)S(=O)(=O)c1ccc(Cl)c(Cl)c1 | IIIB | - | p24 | <10 µM
CCC1=C(C(=O)OCC2CCCCC2)C(c2ccc([N+](=O)[O-])c([N+](=O)[O-])c2)NC(=O)N1 | - | - | p24 / ELISA | ≤1 µM
C=CCOC(=O)N[C@@H](Cc1ccccc1)[C@H](O)CN(CC(C)C)S(=O)(=O)c1ccc(F)cc1 | IIIB | - | p24 | <10 µM
CC(C)OC(=O)c1cc(NC(=S)c2ccsc2)ccc1Cl | - | RT-E138K | syncytia | 14 µM
O=C1N[C@H](COC(=O)N[C@@H](Cc2ccccc2)[C@H](O)CN(CC2CCCC2)S(=O)(=O)c2ccc(Cl)cc2)CO1 | IIIB | - | p24 | <0.101 µM

Again, the opening 11 rows:

smiles,strain,changes,read by,value
CCC1=C(C2=NC[C@H](C3CCCCC3)O2)[C@H](c2cccc(O)c2)NC(=O)N1,-,-,p24 / ELISA,≤1 µM
CC(COc1cc(NC(=S)OC(C)C)ccc1Cl)=NO,IIIB,-,syncytia,0.097 µM
CCC1=C(C(=O)OCC2CCCCC2)C(Cc2ccccc2)NC(=O)N1,-,-,p24 / ELISA,>5 µM
CCCOC(=O)c1cc(NC(=S)OC(C)C)ccc1Cl,-,RT-V106A,syncytia,2.533 µM
COc1ccc(NC(=S)c2ccsc2C)cc1OCC=C(Cl)Cl,Pyridone-resistant (RT Y181C),RT-Y181C,syncytia,0.13 µg/mL
CCOCn1c(Sc2cc(C)cc(C)c2)c(CC)c(=O)[nH]c1=O,IIIB,RT-Y188H,syncytia,8.9 µM
Cc1ccsc1C(=O)Nc1ccc(Cl)c(C(=O)OC2CCCCC2)c1,-,RT-V106A,syncytia,18 µM
CC(C)OC(=S)Nc1ccc(Cl)c(C(=O)O)c1,-,RT-L100I,syncytia,>36.53 µM
O=C1NC(C2CC2)=C(C(=O)OCC2CCCCC2)C(c2ccc([N+](=O)[O-])cc2)N1,-,-,p24 / ELISA,>5 µM
Cc1ccc(C)c(CS(=O)(=O)c2cccc[n+]2[O-])c1,RF,-,syncytia,7.2 µg/mL
CCOC(=O)N[C@@H](Cc1ccccc1)[C@H](O)CN(CC1CCCC1)S(=O)(=O)c1ccc(F)cc1,IIIB,-,p24,<1 µM